System: F344 rat liver
Details: in vivo

## aflatoxin B1 [AFB1, reference compound]
  induction of preneoplastic GST-P positive foci in liver (in words): elicited the expected preneoplastic foci in the livers of each rat tested
